Measurements published in PMC10593804.
For at least one entry, the source does not settle the construct or the ends of the probe.

Molecular target: StrepHP1021 (Helicobacter pylori) (UniProt O25665)
Test: EMSA
Settings: recombinant protein, protein details: N-terminal Strep, label: 5'-FAM (primer P33), probe letters rebuilt from the primers and the genome

Row | Sequence | binding result | binding result (affinity comparable to oriC2)
1 | GGAGTAAGAATAGCTTCGAATCTATATATTTATAGCCTTAATCGTAAATGCAACAGAAATTTTCTAGTCTAAAGTCGCACCCTTTGTGCAAAAATCGTTTTACAAGAAGAAAGGAAAAAAATGGAAATACAACAAACACACCGCAAAATCAATCGCCCTCTGGTTTCTCTTGCTTTAGTAGGAGCGTTAGTCAGCATCACACCGCAACAAAGTCATGCCGCCTTTTTCACAACCGTGATCATTCCAGCCATTGTTGGGGGGATCGCTACAGGCGCTGCTGTAGGAACGGTCTCAGGGCTTCTTAGCTGGGGGCTCAAACAAGCCG (double strand) [pvacA] | binds | –
2 | GGAGTAAGAATAGCTTCGAATCGAAAGCGTCTCTAAAGAAAAAGAAACGCATTCCCCCACTTTTAAGGTAGAAACCACTCAATTAGATGTAAAAATCCCAAATTTCAAGCAAAAAAAGGTTAAAAAGGATACAATAAATACAAAAAATGAAATTTAAATAAATGGGAATTTAATGAGAATTTTTTTTGTTATTATGGGACTTGTGTTTTTTGGTTGCACCAGTAAGGTGCATGAGATGAAAAAAAGCCCTTGCACCTTGTATGAAAACAGGTTAAATCTCGCATGAGGATCCCG (double strand) [pcomB8] | – | binds
